Our source for the IC50 values is publication PMC5735092 (Scientific Reports, 2017).

For part of its entries the source gives two or more results. The other results are left out here. There may be further records. The values listed for one entry differ, and nothing given here explains why; some may be repeats, others may stem from another dose, organism or construct than stated.

For the assay, the target named is IMPα/β1:C (Mus musculus, UniProt P52293). Briefly: AlphaScreen IMPα/β1:C binding assay. As to conditions: read-out: IC50 ± SD, 15 nM IMPα/β1, 30 nM capsid. Background: Bead proximity is the source of the signal in Alpha formats.

As for `CC(=O)Nc1ccc(S(=O)(=O)Nc2ccc(C3(c4ccc(NS(=O)(=O)c5ccc(NC(C)=O)cc5)cc4)c4ccccc4-c4ccccc43)cc2)cc1` [AN-329/40863801], the IC50 is < 12 µM and 5.2 µM.
